Measured values from several laboratories, pooled; numbers as filed in NIAID ChemDB.

Shared fields: whole-cell or culture tests; agent: Hepatitis C virus; cells: Huh7; method: replicon; endpoint: EC50

Conditions beyond the fields shown may differ between rows. ECn is the concentration giving n% inhibition of infection, replication or growth. Two numbers with a dash give a range or band.

structure	result
CNC(=O)c1c(-c2ccc(F)cc2)oc2cc(C3CCN(C(C)=O)C3)c(OC)cc12	<10 µM
O=C(Cc1ccc(F)c(Cl)c1)N/N=C/c1ccccc1OS(=O)(=O)c1ccc(C(F)(F)F)cc1	<5 µM
COC(=O)c1ccc2c(C3CCCCC3)c3n(c2c1)CC(C(=O)N1CCOCC1)=Cc1cc(OC)ccc1-3	0.01–1 µM
Cc1ccc(S(=O)(=O)Oc2cc(F)ccc2/C=N/NC(=O)Cc2cccc(Cl)c2)cc1	<5 µM
CNC(=O)c1c(-c2ccc(F)cc2)oc2cc(-c3nn[nH]n3)c(OC(C)C)cc12	>30 µM
CN1C(=O)Cn2c(c(C3CCCCC3)c3ccc(C(=O)NS(=O)(=O)N(C)C)cc32)-c2ccccc21	0.01–1 µM
CCNc1cc2oc(-c3ccc(F)cc3)c(C(=O)NC)c2c(Cl)c1OC	<1 µM
CC(C)(C)OC(=O)/C=C/c1ccc(NC(=O)C2(NC(=O)c3ccc4c(C5CCCCC5)c5n(c4c3)CC(=O)N5Cc3ccccc3)CCCC2)cc1	>10 µM
O=C(Cc1ccccc1)N/N=C/c1ccccc1OS(=O)(=O)c1ccc(Cl)cc1Cl	<5 µM
O=C(Nc1ccc(C2SC(=Nc3ccc(N4CCOCC4)cc3)N(Cc3ccccn3)C2=O)cc1)[C@H]1CCC(=O)N1C(=O)OCc1ccccc1	<0.1 µM
O=C(O)/C=C/c1ccc(NC(=O)C2(NC(=O)c3ccc4c(C5CCCCC5)c5n(c4c3)C[C@@H](O)[C@@H](O)c3ncccc3-5)CCCC2)cc1	0.01–1 µM
O=C(Cc1cccc(Cl)c1)N/N=C/c1ncccc1OS(=O)(=O)c1ccc(C(F)(F)F)cc1	5–50 µM
O=C(Nc1ccc(C2SC(=Nc3ccc(N4CCOCC4)cc3)N(Cc3ccncc3)C2=O)cc1)[C@H]1CCCN1C(=O)OCc1ccccc1	<0.1 µM
CNC(=O)c1c(-c2ccc(F)cc2)oc2cc(NC(N)=O)c(OC(C)C)cc12	<10 µM
CN1CCN(C(=O)C2Cc3ccccc3-c3c(C4CCCCC4)c4ccc(C(=O)NS(=O)(=O)N(C)C)cc4n3C2)CC1	0.01–1 µM
CNC(=O)c1c(-c2ccc(F)cc2)oc2cc(-c3ncnn3C)c(OC)cc12	<1 µM
C[C@@H](NC(=O)OCc1ccccc1)C(=O)Nc1ccc(C2SC(=Nc3cccc(F)c3)N(Cc3ccccn3)C2=O)cc1	<0.1 µM
COc1cc2c(C(=O)NC3CC3)c(-c3ccc(F)cc3)oc2cc1-c1c(C)noc1C	<1 µM
COc1ccc(N=C2SC(c3ccc(NC(=O)[C@@H](C)NC(=O)OCc4ccccc4)cc3)C(=O)N2Cc2ccco2)cc1F	0.1–1 µM
COc1cccc(CC(=O)N/[N+](C)=C/c2cc(F)ccc2OS(=O)(=O)c2ccc(C(F)(F)F)cc2)c1	>50 µM
CNC(=O)c1c(-c2ccc(F)cc2)oc2cc(N(Cc3nsc(Cl)n3)S(C)(=O)=O)c(OC(C)C)cc12	<10 µM
O=C(NS(=O)(=O)C1CC1)c1ccc2c(C3CCCCC3)c3n(c2c1)CCNc1ccccc1-3	0.01–1 µM

A second listing of 3 rows from above:

structure | result
COC(=O)c1ccc2c(C3CCCCC3)c3n(c2c1)CC(C(=O)N1CCOCC1)=Cc1cc(OC)ccc1-3 | 0.01–1 µM
O=C(Nc1ccc(C2SC(=Nc3ccc(N4CCOCC4)cc3)N(Cc3ccccn3)C2=O)cc1)[C@H]1CCC(=O)N1C(=O)OCc1ccccc1 | <0.1 µM
O=C(Cc1ccccc1)N/N=C/c1ccccc1OS(=O)(=O)c1ccc(Cl)cc1Cl | <5 µM